Earlier results as cited in paper PMC4311985, “Molecular Surveillance of Antiviral Drug Resistance of Influenza A/H3N2 Virus in Singapore, 2009-2013” (PLoS ONE, 2015).

System: NA D251G
Settings: cited from earlier work

CC(=O)N[C@H]1[C@H]([C@H](O)[C@H](O)CO)OC(C(=O)O)=C[C@@H]1N=C(N)N [Zanamivir, zanamivir]
level of drug resistance: low levels
